Values from PubChem BioAssay AID624099 (ICCB-Longwood, 2012)

Purpose: 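Knock-downs relieving repression by E2 of an HPV18 LCR luciferase reporter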 (primary screen)
System: human C33A cervical carcinoma cells (HPV-negative) stably expressing BPV1 E2 and an HPV18 LCR luciferase reporter
Reagent: siRNA pool against human genes, 40 nM
Time to read-out: 72 h
Detection: 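Per-well luciferase luminescence, z-scored on each plate against the plate mean and SD with control wells left out, then averaged across three replicate plates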
Reading the numbers: mean z-score and z-score: higher = stronger reporter signal, weaker E2 silencing
Active means: 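Hit if mean z-score reaches 2 and two or more of three replicate z-scores also reach 2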
The deposit covers about 21,000 reagents; this is an unselected part. 497 of all reagents (2.4%) were called active. 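Higher z means weaker E2 silencing; only reporter increases were scored, and knock-downs that hurt cell survival may mask genuine repressor factors.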 Unmarked entries are inactive.

SENP5 [SID134311371] — mean z-score = 0.49; z-score, replicate A = 0.59; z-score, replicate B = 0.38
FBXL17 [SID134326055] — mean z-score = -0.15; z-score, replicate A = 0; z-score, replicate B = -0.25; z-score, replicate C = -0.18
ACAD10 [SID56479184] — mean z-score = -0.91; z-score, replicate A = -0.99; z-score, replicate B = -0.85; z-score, replicate C = -0.9
GLE1 [SID134315636] — mean z-score = 1.34; z-score, replicate A = 1.16; z-score, replicate B = 1.21; z-score, replicate C = 1.66
HTR5A [SID134311081] — mean z-score = 1.19; z-score, replicate A = 1.39; z-score, replicate B = 0.94; z-score, replicate C = 1.25
DNM1P40 [SID134328582] — mean z-score = -0.21; z-score, replicate A = -0.09; z-score, replicate B = -0.29; z-score, replicate C = -0.24
TRIM48 [SID134312182] — mean z-score = -0.65; z-score, replicate A = -1; z-score, replicate B = -0.47; z-score, replicate C = -0.48
COMP [SID134315382] — mean z-score = 1.65; z-score, replicate A = 1.76; z-score, replicate B = 1.68; z-score, replicate C = 1.51
PLP2 [SID134323370] — mean z-score = 0.25; z-score, replicate A = 0.08; z-score, replicate B = 0.67; z-score, replicate C = -0.01
C4orf36 [SID134320024] — mean z-score = -0.1; z-score, replicate A = -0.06; z-score, replicate B = 0.05; z-score, replicate C = -0.27
CCL3L3 [SID134329774] — mean z-score = -0.05; z-score, replicate A = -0.02; z-score, replicate B = 0.39; z-score, replicate C = -0.52
LCE5A [SID134322851] — mean z-score = 2.05; z-score, replicate A = 1.75; z-score, replicate B = 1.7; z-score, replicate C = 2.71
RASGRP1 [SID134313769] — mean z-score = 0.14; z-score, replicate A = 0.18; z-score, replicate C = 0.1
LAMP5 [SID134323535] — mean z-score = 0.03; z-score, replicate A = -0.02; z-score, replicate B = 0.06; z-score, replicate C = 0.03
CASC3 [SID134315069] — mean z-score = -0.82; z-score, replicate A = -0.81; z-score, replicate B = -0.73; z-score, replicate C = -0.92
GABRE [SID134311591] — mean z-score = -0.22; z-score, replicate A = 0.01; z-score, replicate B = -0.37; z-score, replicate C = -0.3
SLC9A5 [SID134312671] — mean z-score = 0.57; z-score, replicate A = 0.47; z-score, replicate B = 0.72; z-score, replicate C = 0.53
SEC14L3 [SID134323049] — mean z-score = 0.41; z-score, replicate A = 0.37; z-score, replicate B = 0.45; z-score, replicate C = 0.42
HHEX [SID134316074] — mean z-score = -0.95; z-score, replicate A = -0.73; z-score, replicate B = -1.11; z-score, replicate C = -1
ILRUN [SID134320328] — mean z-score = -0.65; z-score, replicate A = -0.79; z-score, replicate B = -0.51; z-score, replicate C = -0.64
LRRC27 [SID134326497] — mean z-score = -0.08; z-score, replicate A = -0.21; z-score, replicate B = 0.04; z-score, replicate C = -0.08
